Test results from publication PMC10249356 (Biochemistry, 2023).

Experiments:
[1] = tested on: C/C(=C\C(=O)O)C(=O)SCCNC(=O)CCNC(=O)[C@H](O)C(C)(C)COP(=O)(O)OP(=O)(O)OC[C@H]1O[C@@H](n2cnc3c(N)ncnc32)[C@H](O)[C@@H]1OP(=O)(O)O; test: purified protein; details: 200 mM HEPES pH 7.5, 400 µM NADPH, 30 °C, apparent KM
[2] = tested on: CC(C)(COP(=O)(O)OP(=O)(O)OC[C@H]1O[C@@H](n2cnc3c(N)ncnc32)[C@H](O)[C@@H]1OP(=O)(O)O)[C@@H](O)C(=O)NCCC(=O)NCCSC(=O)CCC(=O)O; test: purified protein; details: 200 mM HEPES pH 7.5, 400 µM NADPH, 30 °C, apparent KM

“CdSucD (Clostridioides difficile R20291; K79R)” showed a Km [1] of 144.3 ± 12.3 µM, a kcat [1] of 0.5 ± 0.02 s⁻¹ and a Km [2] of 38.6 ± 7.4 µM. It also gave a kcat [2] of 7.3 ± 0.51 s⁻¹.
